Source: patent US8076375B2 (priority 2005, dated 2011)

What was measured:
[1] = target: variola F10 kinase (GST-F10) (Variola virus, UniProt P33801, R299C); details: 10 μM inhibitor
[2] = target: vaccinia virus B1 kinase (GST-B1) (Vaccinia virus, UniProt P20505); experiment: Scintillation proximity assay / in vitro protein kinase assay with GST-B1 and casein; format: biochemical

## Cc1nn(-c2ccc(S(=O)(=O)O)cc2)c(O)c1N=Nc1ccc(-c2ccc(N=Nc3ccc4c(S(=O)(=O)O)cc(S(=O)(=O)O)c(N)c4c3O)c(O)c2)cc1O
[1]
  Percent activity remaining at 10 μM, F10: 4%
[2]
  IC50: 2500 nM
[2]; 10 μM inhibitor
  Percent activity remaining at 10 μM, B1: 6%
